# Reference: article PMC5298233, “Substrate-analogous inhibitors exert antimalarial action by targeting the Plasmodium lactate transporter PfFNT at nanomolar scale” (PLoS Pathogens, 2017)
# Tested on: MMV007839 resistant 3D7 parasites
# Type: cell-based, Plasmodium falciparum
compound,measurement,value
COc1ccc2c(c1)OC(O)(C(F)(F)C(F)(F)F)CC2=O (stereo not shown) [MMV007839],"shift in IC50, resistant versus non-resistant parental parasites",250 fold
